Compound potency records, mixed from different reports. Data source: NIAID ChemDB in PubChem.

All rows: tests in culture; agent: Hepatitis B virus

Percent inhibition refers to the dose given; in toxicity tests it is the harm to the cells. ECn is the concentration giving n% inhibition of infection, replication or growth. a–b is a range or a potency band. Rows are shuffled and stem from different studies.

[N-]=[N+]=N[C@H]1C[C@H](n2cc(Cl)c(=O)[nH]c2=O)O[C@@H]1CO ; measure: EC90 ; cells: HepG2.2.15 ; value: >100 µM
Nc1nc(N)c2ncn([C@H]3CO[C@@H](CO)O3)c2n1 ; measure: EC50 ; strain or isolate: L526M ; value: 59 µM
Nc1ccn([C@@H]2CS[C@H](CO)O2)c(=O)n1 ; measure: EC50 ; cells: HepG2 ; strain or isolate: Mutations L526M M550V ; value: 86.2 µM
Nc1ncnc2c1ncn2CCOCP(=O)(O)O ; method: PCR ; measure: inhibition ; cells: HepaRG ; strain or isolate: Genotype D ; tested at: 1 µM ; value: 50–80%
C[C@@H](Cn1cnc2c(N)nc(N)nc21)OCP(=O)(O)O ; method: PCR ; measure: EC50 ; cells: HEPAD79 ; value: 14.5 µM
CCOC(=O)CC1COP(=O)(CO[C@H](C)Cn2cnc3c(NC(C)=O)ncnc32)OC1 ; method: PCR ; measure: inhibition ; cells: PHH ; strain or isolate: Genotype D ; tested at: 1 µM ; value: ≤30%
CC(c1ccc(O)c(O)c1)N1C=NC2C(N)=NC=NC21 ; method: PCR ; measure: EC50 ; cells: HepG2.2.15 ; value: 13.06 µM
Nc1nc(=O)n([C@H]2CS[C@@H](CO)O2)cc1F ; measure: EC90 ; cells: HEPAD79 ; strain or isolate: RTM204 ; value: >10 µM
Nc1nc(N)c(Br)c(OCCOCP(=O)(O)O)n1 ; method: PCR ; measure: EC50 ; cells: HEPAD79 ; value: 17.5 µM
Nc1ncnc2c1ncn2CCOCP(=O)(O)O ; measure: EC50 ; cells: Huh7 ; strain or isolate: Mutation M552V ; value: 4.9 µM
C[C@H](Cn1cnc2c(N)nc(N)nc21)OCP(=O)(O)O ; method: PCR ; measure: EC50 ; cells: HepAD38 ; value: 0.3 µM
CCn1cc(C(=O)O)c(=O)c2ccc(C)nc21 ; measure: EC90 ; cells: HepG2.2.15 ; value: 57 µM
Nc1nc(N)c2ncn(CCOCP(=O)(O)O)c2n1 ; method: PCR ; measure: EC50 ; cells: HepAD38 ; value: 0.4 µM
Nc1nc(=O)n([C@H]2C[C@H](F)[C@@H](CO)O2)cc1Cl ; measure: EC90 ; cells: HepG2.2.15 ; value: >100 µM
CCC(CCC(C)C1CCC2C3C[C@@H](O)[C@@]4(O)C[C@@H](O)CCC4(C)C3CCC12C)C(C)C ; method: antigen ; measure: inhibition ; cells: HepG2 2.2.15 ; tested at: 12.5 µg/mL ; value: 12.2%
Nc1nc(=O)n([C@@H]2CS[C@H](CO)O2)cc1F ; measure: EC90 ; cells: HEPAD79 ; strain or isolate: RTM204 ; value: >10 µM
O=C(O)c1ccc(O)c(O)c1 ; method: PCR ; measure: EC50 ; cells: HepG2.2.15 ; value: 32.6 µM
NC(=O)c1cn([C@@H]2C[C@H](CCP(=O)(O)O)C[C@H]2O)nn1 ; measure: EC90 ; cells: AD38 ; value: >10 µM
Cc1c(N)nc(N)nc1OCCOCP(=O)(O)O ; method: PCR ; measure: EC50 ; cells: HepAD38 ; value: 3.2 µM
Nc1ncnc2c1ncn2[C@H]1CC[C@@H](CO)O1 ; measure: EC90 ; cells: HepG2.2.15 ; value: 96 µM
Cc1cn([C@H]2C[C@H](N=[N+]=[N-])[C@@H](CO)O2)c(=O)[nH]c1=O ; measure: EC90 ; cells: AD38 ; value: >10 µM
Nc1nc2c(ncn2[C@@H]2C[C@H](CO)[C@@H](O)C2)c(=O)[nH]1 ; measure: EC90 ; cells: HepG2.2.15 ; value: 0.1 µM
Nc1ccn([C@@H]2CS[C@H](CO)O2)c(=O)n1 ; measure: EC50 ; strain or isolate: L526M ; value: 0.8 µM
Nc1ncnc2c1ncn2CCOCP(=O)(O)O ; measure: inhibition ; cells: HepG2 ; strain or isolate: WILD TYPE ; tested at: 0.5 µM ; value: 85%
CC(C)OC(=O)[C@H](C)N[P@](=O)(CO[C@H](C)Cn1cnc2c(N)ncnc21)Oc1ccccc1 ; method: PCR ; measure: inhibition ; cells: HepaRG ; strain or isolate: Genotype D ; tested at: 1 µM ; value: ≤30%
Cc1cc(OCCOCP(=O)(O)O)nc(N)n1 ; method: PCR ; measure: EC50 ; cells: HepAD38 ; value: >300 µM
COc1cc2ccc(=O)oc2cc1O ; method: PCR ; measure: EC50 ; cells: HepG2.2.15 ; value: 682 µM
CCOC(=O)CC1COP(=O)(CO[C@H](C)Cn2cnc3c(NC(=O)C(C)C)ncnc32)OC1 ; method: PCR ; measure: inhibition ; cells: PHH ; strain or isolate: Genotype D ; tested at: 1 µM ; value: ≤30%
N#Cc1c(N)nc(N)nc1OCCOCP(=O)(O)O ; method: PCR ; measure: EC50 ; cells: HepAD38 ; value: 0.14 µM
Nc1nc(=O)n([C@H]2O[C@@H](CO)C=C2F)cc1F ; measure: EC90 ; cells: HEPAD79 ; strain or isolate: RTM204 ; value: >10 µM
O=c1[nH]cnc2c1ncn2[C@H]1CC[C@@H](CO)O1 ; measure: EC90 ; cells: HepG2.2.15 ; value: 127 µM
CCOC(=O)/C=C/c1ccc(O)c(O)c1 ; method: PCR ; measure: EC50 ; cells: HepG2.2.15 ; value: 25.77 µM
Nc1nc(=O)n([C@@H]2CC[C@H](CO)O2)cc1F ; measure: EC90 ; cells: HepAD38 ; strain or isolate: RTM204 ; value: 0.31 µM
CCOC(=O)c1ccc(O)cc1 ; method: ELISA / antigen ; measure: EC50 ; cells: HepG2.2.15 ; value: <44.88 µM
NC(=O)c1cn([C@@H]2C[C@H](CO)C[C@H]2O)nn1 ; measure: EC90 ; cells: AD38 ; value: >10 µM
Cc1cn([C@H]2CC[C@@H](CO)O2)c(=O)[nH]c1=O ; measure: EC90 ; cells: HepG2.2.15 ; value: 134 µM
NC(=O)c1nnn([C@@H]2C[C@H](CO)C[C@H]2O)c1N ; measure: EC90 ; cells: AD38 ; value: >10 µM
C[C@H](Cn1cnc2c(N)ncnc21)OCP(=O)(O)O ; method: PCR ; measure: EC50 ; cells: HepG2.2.15 ; value: 3.34 µM
C[C@@H](COc1cc(N)nc(N)n1)OCP(=O)(O)O ; method: PCR ; measure: EC50 ; cells: HepAD38 ; value: 61 µM
C[C@H](Cn1cnc2c(N)ncnc21)OCP(=O)(O)O ; method: hybridisation ; measure: EC90 ; cells: HepG2 2.2.15 ; value: 10 µM
Nc1nc(=O)n([C@H]2CC[C@@H](CO)O2)cc1Cl ; measure: EC90 ; cells: HepG2.2.15 ; value: >100 µM
Nc1ncnc2c1ncn2CCOCP(=O)(O)O ; method: hybridisation ; measure: EC90 ; cells: HepG2 2.2.15 ; value: 19 µM
Nc1nc(=O)n([C@@H]2C=C[C@H](CO)O2)cc1F ; measure: inhibition ; cells: HepG2 ; strain or isolate: WILD TYPE ; tested at: 0.01 µM ; value: 93%